# Replication capacity of HIV-1 mutants, Gag

From the data files of Al-Mawsawi et al. 2014, doi:10.1186/s12977-014-0124-6.

Protein: Gag of HIV-1 NL4-3, numbered from its first residue. Gag is numbered as the whole polyprotein.
"Other frame" gives the effect on an overlapping gene as the source lists it; other overlaps (genes, RNA elements) are not shown.

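Random point mutant libraries of HIV-1 NL4-3, one for each of seven fragments, were passaged in CEM T lymphocytes. The RC index is the frequency of a change after passage round 2 divided by its frequency in the plasmid library.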

A higher RC index is a better tolerated change; approximate classes are lethal up to 0.1, attenuated to 0.2, tolerated above. Substitutions are written as wild-type residue, site number, new residue. Input reads are the counts in the plasmid library. Nucleotide positions follow pNL4-3.

mutation	base	region	other frame	input reads	RC
N271I	A1601T	CA	none	255	0.0775
Q308K	C1711A	CA	none	60	0.151
N432K	T2085G	NC p7	none	63	0.168
K95Q	A1072C	MA	none	64	0.100
E312K	G1723A	CA	none	258	0.105
V218G	T1442G	CA	none	43	0.150
Q63H	G978T	MA	none	254	0.0638
N124K	C1161A	MA	none	102	0.0215
Q182R	A1334G	CA	none	489	0.0581
A326E	C1766A	CA	none	87	0.0520
K359T	A1865C	CA	none	240	0.0116
L101F	A1092T	MA	none	363	0.0443
K391N	G1962C	NC p7	none	50	0.157
V46D	T926A	MA	none	291	0.0348
A309P	G1714C	CA	none	53	0.299
N447D	A2128G	p1 / p6*	p6* E7G	567	0.0262
N271K	T1602A	CA	none	896	0.0906
P181L	C1331T	CA	none	237	0.0599
T186N	C1346A	CA	none	131	0.0542
G178E	G1322A	CA	none	243	0.175
C87Y	G1049A	MA	none	652	0.0740
L13I	T826A	MA	none	264	0.0366
A374T	G1909A	p2	none	312	0.131
I282V	A1633G	CA	none	271	0.0648
Q59H	A966T	MA	none	472	0.0386
N137K	C1200G	CA	none	80	0.0275
P149L	C1235T	CA	none	352	0.0749
M187T	T1349C	CA	none	280	0.0824
E105K	G1102A	MA	none	248	0.363
L75V	C1012G	MA	none	107	0.0601
A119S	G1144T	MA	none	140	0.125
E177V	A1319T	CA	none	181	0.0196
M171I	G1302C	CA	none	73	0.0730
I82V	A1033G	MA	none	314	0.0921
E55D	A954C	MA	none	89	0.0455
K397E	A1978G	NC p7	none	149	0.0211
V88L	G1051C	MA	none	127	0.0253
S9N	G815A	MA	none	232	0.100
A196P	G1375C	CA	none	53	0.201
V258I	G1561A	CA	none	675	0.0943
I92T	T1064C	MA	none	145	0.0887
L75H	T1013A	MA	none	288	0.0670
K202R	A1394G	CA	none	398	0.0641
G226C	G1465T	CA	none	679	0.0285
Q311K	C1720A	CA	none	34	0.133
M276I	G1617A	CA	none	486	0.149
D298V	A1682T	CA	none	185	0.0612
R286G	A1645G	CA	none	573	0.0465
I285R	T1643G	CA	none	34	0.196
E428V	A2072T	NC p7	none	435	0.0244
I401L	A1990T	NC p7	none	138	0.0456
E428G	A2072G	NC p7	none	317	0.0936
Y296F	A1676T	CA	none	273	0.0663
Q69R	A995G	MA	none	510	0.567
K98Q	A1081C	MA	none	30	0.857
D284E	C1641G	CA	none	194	0.0344
K436M	A2096T	p1	none	482	0.0396
E208G	A1412G	CA	none	337	0.0893
K418N	G2043T	NC p7	none	263	0.145
L61R	T971G	MA	none	134	0.0605
L138I	C1201A	CA	none	169	0.169
N394K	T1971A	NC p7	none	299	0.0736
V353L	G1846T	CA	none	38	0.0923
I205T	T1403C	CA	none	366	0.123
K18I	A842T	MA	none	205	0.0386
A163T	G1276A	CA	none	395	0.144
G2S	G793A	MA	none	415	0.0419
I285T	T1643C	CA	none	435	0.0817
P48T	C931A	MA	none	121	0.938
F293Y	T1667A	CA	none	461	0.0540
M346I	G1827T	CA	none	42	0.0557
G357S	G1858A	CA	none	395	0.561
N131K	T1182A	MA	none	164	0.0134
R22W	A853T	MA	none	371	0.0534
G24R	G859A	MA	none	501	0.0890
A220P	G1447C	CA	none	54	0.279
E74V	A1010T	MA	none	135	0.0714
A364S	G1879T	p2	none	187	0.0522
Q65P	A983C	MA	none	187	0.0688
K110T	A1118C	MA	none	67	0.144
E230G	A1478G	CA	none	316	0.0408
Y277F	A1619T	CA	none	191	0.0804
K415R	A2033G	NC p7	none	583	0.0400
M200V	A1387G	CA	none	490	0.0641
K113I	A1127T	MA	none	695	0.0306
G24E	G860A	MA	none	498	0.151
V191A	T1361C	CA	none	237	0.0974
N124Y	A1159T	MA	none	406	0.0270
T122R	C1154G	MA	none	41	0.0536
A309T	G1714A	CA	none	295	0.0844
T242S	A1513T	CA	none	228	0.0848
T280A	A1627G	CA	none	212	0.0621
L175I	T1312A	CA	none	412	0.0345
Q28L	A872T	MA	none	217	0.0840
N109D	A1114G	MA	none	203	0.0158
A210P	G1417C	CA	none	118	0.0729
E365D	A1884T	p2	none	519	0.0188
Q199H	A1386T	CA	none	455	0.152
M198I	G1383C	CA	none	140	0.0507
G396V	G1976T	NC p7	none	114	0.0552

Extract of 13 entries:

- G396V (base G1976T, region NC p7, input reads 114) = 0.0552
- M171I (base G1302C, region CA, input reads 73) = 0.0730
- N271I (base A1601T, region CA, input reads 255) = 0.0775
- G178E (base G1322A, region CA, input reads 243) = 0.175
- Q311K (base C1720A, region CA, input reads 34) = 0.133
- Q59H (base A966T, region MA, input reads 472) = 0.0386
- Q199H (base A1386T, region CA, input reads 455) = 0.152
- I285T (base T1643C, region CA, input reads 435) = 0.0817
- Y296F (base A1676T, region CA, input reads 273) = 0.0663
- P181L (base C1331T, region CA, input reads 237) = 0.0599
- K436M (base A2096T, region p1, input reads 482) = 0.0396
- T122R (base C1154G, region MA, input reads 41) = 0.0536
- K359T (base A1865C, region CA, input reads 240) = 0.0116

An index over 1, which the authors read as above wild type, was rare (1.9% of all changes in the genome). Clones carried about five changes per kilobase, which can drag down the index of neutral changes.